Data as given in PubChem BioAssay AID504761 (Drosophila RNAi Screening Center, 2011)
Aim: 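Insect host genes that dengue virus relies on to spread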 (primary screen). Cells: D.Mel-2 cells from Drosophila. Knock-down reagent: long dsRNA against Drosophila genes. Treatment: infection with dengue virus type 2; dose and infection time not stated. Detection: 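Per well on two replicate plates, imaging gave the percent of cells positive for viral envelope protein, ranked by infection, and a nuclear count of cells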. Reading the numbers: infection score: higher = more virus-infected cells; cell count: higher = more cells in the well. Active means: 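Low infection ranks in the two replicates (chance level up to 0.065) followed by a retest with a 1.5-fold or larger significant decrease, p below 0.05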. Calls: active = confirmed: knock-down lowers infection; inactive = not picked or not confirmed.
The screen tested about 22,000 reagents; shown is a random part of those with a known target gene and a result. In the full data, 116 (0.52%) were called active. 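Calls depend on retest data that are not deposited; infection was ranked per plate without normalising between plates; the unit of the infection score is not given.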 The raw values are shown without normalisation. The numbers tell different reagents against one gene apart. Names joined by + are all predicted targets of the reagent. The record does not give: the amount of reagent, the time to read-out.

gene	reagent	infection score, replicate 1	infection score, replicate 2	cell count, replicate 1	cell count, replicate 2	activity call
CG32816	1	1.6	2.16	6799	6814	inactive
CG5062	1	6.22	8.32	6124	5928	inactive
Tbh (Tyramine beta hydroxylase)	1	4.95	13	5841	5698	inactive
Tbh (Tyramine beta hydroxylase)	2	5.33	3.7	6532	6345	inactive
CG17065	1	0.6	0.19	5853	5790	active
CG17065	2	16.3	3.02	6615	6551	inactive
sgl (sugarless)	1	2.61	4.9	6049	6554	inactive
sgl (sugarless)	2	1.02		295	285	inactive
CG14424	1	2.06		2086	375	inactive
CG14424	2		0.37	293	273	inactive
Nost (Nostrin)	1	2	6.08	6299	6431	inactive
Nost (Nostrin)	2	4.64	19.1	4960	5525	inactive
Nost (Nostrin)	3	0.88	2.01	6235	6008	inactive
ReepB (Receptor expression enhancing protein B)	1	8.55	10.9	5917	6370	inactive
ReepB (Receptor expression enhancing protein B)	2	2.64	13.9	5868	6217	inactive
CG15207 (retired record)	1	1.62	2	5506	6904	inactive
CG15207 (retired record)	2	15.6	1.54	4444	649	inactive
CG4955	1	10.9	3.93	6083	6542	inactive
EndoA (Endophilin A)	1	1.34	1.85	6341	6318	inactive
EndoA (Endophilin A)	2	21.7	12.8	5031	2612	inactive
PIG-G (Phosphatidylinositol glycan anchor biosynthesis class G)	1	25.1	31.8	6464	5568	inactive
TrpRS-m (Tryptophanyl-tRNA synthetase, mitochondrial)	1	10.5	30.4	4719	3630	inactive
c11.1	1	3.12	2.94	5936	6047	inactive
CG7126	1	1.65	11.2	6983	5448	inactive
CG7126	2	2.83	0.29	6190	6153	inactive
Osi10b (Osiris 10b)	1	8.54	1.67	6019	5690	inactive
CG9044	1	3.12	16.4	6192	5331	inactive
Acadvl (Acyl-CoA dehydrogenase very long chain)	1	5.03	11.6	6874	6227	inactive
Acadvl (Acyl-CoA dehydrogenase very long chain)	2	2.48	6.31	6337	5818	inactive
MFS16 (Major Facilitator Superfamily Transporter 16)	1	16.4	24.4	4780	5197	inactive
MFS16 (Major Facilitator Superfamily Transporter 16)	2	1.22	6.59	6326	6286	inactive
Ced-12	1	5.1	4.28	6607	6863	inactive
Ced-12	2	2.02	2.21	7423	7359	inactive
apn (apnoia)	1	18.4	7.78	5704	6797	inactive
CG2113	1	0.53	1.01	6082	5938	inactive
CG2113	2	26.7	12.8	5231	2752	inactive
PIG-Wb (Phosphatidylinositol glycan anchor biosynthesis class W b)	1	3.53	10.9	6029	6260	inactive
S-Lap5 (Sperm-Leucylaminopeptidase 5)	1	17.8	7.98	6243	5641	inactive
S-Lap5 (Sperm-Leucylaminopeptidase 5)	2	2.96	2.79	6964	6630	inactive
Syt7 (Synaptotagmin 7)	1	1.22	13.3	329	4889	inactive
Syt7 (Synaptotagmin 7)	2	0.44	15.3	459	4939	inactive
CG13670	1	2.27	2.17	6074	5978	inactive
CG13670	2	11.9	9.88	4054	6509	inactive
CG5567	1	11.8	25.8	4523	5148	inactive
CG9121	1	2.31	14.7	6376	6109	inactive

8 consecutive records from above, quoted:
gene	reagent	infection score, replicate 1	infection score, replicate 2	cell count, replicate 1	cell count, replicate 2	activity call
CG14424	2		0.37	293	273	inactive
Nost (Nostrin)	1	2	6.08	6299	6431	inactive
Nost (Nostrin)	2	4.64	19.1	4960	5525	inactive
Nost (Nostrin)	3	0.88	2.01	6235	6008	inactive
ReepB (Receptor expression enhancing protein B)	1	8.55	10.9	5917	6370	inactive
ReepB (Receptor expression enhancing protein B)	2	2.64	13.9	5868	6217	inactive
CG15207 (retired record)	1	1.62	2	5506	6904	inactive
CG15207 (retired record)	2	15.6	1.54	4444	649	inactive

The list goes on.
gene	reagent	infection score, replicate 1	infection score, replicate 2	cell count, replicate 1	cell count, replicate 2	activity call
dyl (dusky-like)	1	6.54	2.09	6376	6065	inactive
dyl (dusky-like)	2	3.69	5.42	6180	5846	inactive
dyl (dusky-like)	3	2.67	1.18	6555	6368	inactive
CG3587	1	5.86	18.1	5546	5320	inactive
CG3587	2	12.6	23.1	7246	3284	inactive
CG13028	1	2.55	1.99	6636	6281	inactive
CG44251	1	22.8	7.19	6104	7298	inactive
CG44251	2	4.77	3.46	6399	6358	inactive
ZC3H3	1	5.47	5.87	5884	5999	inactive
ZC3H3	2			352	377	inactive
br (broad)	1	1.21	0.31	6680	6166	inactive
br (broad)	2	4.06	4.05	493	6932	inactive
br (broad)	3	1.1	5.42	6631	6605	inactive
CG10562	1	2.9	3.28	6679	6545	inactive
CG10562	2	0.69	10.5	581	6104	inactive
CG4563	1	8.21	12.9	6837	6209	inactive
CG3703	1	1.96	0.64	5497	6221	inactive
CG3703	2	0.93	4.1	5929	5661	inactive
CG3703	3	2.36	1.68	6650	6179	inactive
CG40005 (retired record) + cta	1	1.89	11.2	6204	5808	inactive
Ice1 (Interacts with the C terminus of ELL 1)	1	2.21	4.51	6512	6587	inactive
Ice1 (Interacts with the C terminus of ELL 1)	2	27.1	29.6	5656	6138	inactive
amon (amontillado)	1	2.65	1.35	5773	5331	inactive
amon (amontillado)	2		6.85	355	1620	inactive
Skp2 (S-phase kinase-associated protein 2)	1	9.56	9.45	5827	5701	inactive
Skp2 (S-phase kinase-associated protein 2)	2	30.2	25.7	6059	4713	inactive
CG8379	1	2.06	25.8	6403	5884	inactive
Cmtr1 (Cap methyltransferase 1)	1	1.81	2.37	6674	6409	inactive
Cmtr1 (Cap methyltransferase 1)	2	18.4	6.59	5666	6522	inactive
